PubChem BioAssay AID624099 | ICCB-Longwood – 2012
Shown is one part, drawn at random, of about 21,000 reagents. Of all reagents, 497 (2.4%) are marked active. 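Higher z means weaker E2 silencing; only reporter increases were scored, and knock-downs that hurt cell survival may mask genuine repressor factors.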 Entries without a mark were called inactive. Reagent sequences are not shown.

- Assay: 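Knock-downs relieving repression by E2 of an HPV18 LCR luciferase reporter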 (primary screen)
- Cell system: human C33A cervical carcinoma cells (HPV-negative) stably expressing BPV1 E2 and an HPV18 LCR luciferase reporter
- Reagent: siRNA pool against human genes, 40 nM
- Time to read-out: 72 h
- Detection: 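HPV18 LCR reporter light per well, converted to plate-wise z-scores that exclude control wells, and averaged over triplicate plates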
- Reading the numbers: mean z-score and z-score: higher = stronger reporter signal, weaker E2 silencing
- Active means: 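Hit if mean z-score reaches 2 and two or more of three replicate z-scores also reach 2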

Target gene | mean z-score | z-score, replicate A | z-score, replicate B | z-score, replicate C
MED7 | -2.26 | -2.28 | -2.34 | -2.16
IBA57 | 0.12 | 0.01 | -0.06 | 0.41
PRAMEF10 | 1.49 | 1.54 | 1.59 | 1.35
APRG1 | -0.35 | -0.3 | -0.45 | -0.3
THOP1 | 0.28 | 0.35 | 0.45 | 0.05
LANCL2 | -0.98 | -0.8 | -1.14 | -1.01
FYTTD1 | 2.87 (active) | 2.61 | 2.94 | 3.06
UPRT | -1.94 | -1.88 | -1.68 | -2.26
TNNT3 | 0.32 | 0.41 | 0.39 | 0.17
ZNF556 | -0.38 | -0.45 | -0.35 | -0.34
PIGS | 0.3 | 0.46 | 0.03 | 0.4
AP1S1 | 0.22 | 0.08 | 0.51 | 0.07
RASD2 | 1.03 | 0.81 | 1.37 | 0.91
LOC389834 | 2.26 (active) | 2.21 | 2.8 | 1.77
KCNJ16 | -0.27 | -0.26 | -0.27 | -0.26
INHBC | 0.66 | 0.54 | 0.52 | 0.91
LINC00668 | 0.77 | 0.39 | 0.75 | 1.15
MED21 | -3.04 | -2.85 | -3.31 | -2.96
CMYA5 | 0.15 | 0 | -0.02 | 0.48
CDH1 | 0.95 | 0.4 | 1.14 | 1.33
LOC158813 (retired record) | -1.46 | -1.26 | -1.78 | -1.35
SLC5A2 | 1 | 0.91 | 1.15 | 0.95
IGDCC4 | -0.08 | -0.4 | -0.07 | 0.25
LOC389473 | -1 | -0.99 | -0.86 | -1.16
VPS37D | -1.31 | -1.44 | -1.25 | -1.23
ADSS2 | -0.21 | 0 | -0.33 | -0.31
IWS1 | -0.35 | -0.35 | -0.37 | -0.32
SORCS1 | 0.05 | -0.01 | -0.03 | 0.2
CYP17A1 | 0.36 | 0.55 | 0.11 | 0.42
NTAN1 | 0.21 | 0.41 | -0.13 | 0.36
H2AZ1 | 0.95 | 1.71 | 0.71 | 0.44
CD9 | 0.76 | 0.75 | 0.97 | 0.57

6 entries from above in another layout.
{"Target gene": "VPS37D", "mean z-score": -1.31, "z-score, replicate A": -1.44, "z-score, replicate B": -1.25, "z-score, replicate C": -1.23}
{"Target gene": "ADSS2", "mean z-score": -0.21, "z-score, replicate A": 0, "z-score, replicate B": -0.33, "z-score, replicate C": -0.31}
{"Target gene": "IWS1", "mean z-score": -0.35, "z-score, replicate A": -0.35, "z-score, replicate B": -0.37, "z-score, replicate C": -0.32}
{"Target gene": "SORCS1", "mean z-score": 0.05, "z-score, replicate A": -0.01, "z-score, replicate B": -0.03, "z-score, replicate C": 0.2}
{"Target gene": "CYP17A1", "mean z-score": 0.36, "z-score, replicate A": 0.55, "z-score, replicate B": 0.11, "z-score, replicate C": 0.42}
{"Target gene": "NTAN1", "mean z-score": 0.21, "z-score, replicate A": 0.41, "z-score, replicate B": -0.13, "z-score, replicate C": 0.36}

Continued:
Target gene | mean z-score | z-score, replicate A | z-score, replicate B | z-score, replicate C
LOC390547 (retired record) | 1.29 | 1.62 | 1.16 | 1.1
KCNH6 | -1.02 | -0.61 | -1.05 | -1.39
GGCT | -1.54 | -1.57 | -1.61 | -1.46
POU4F2 | -0.13 | -0.16 | -0.1 | -0.14
TSEN54 | 1.6 | 1.99 | 1.45 | 1.37
KRTAP19-5 | -1.25 | -1.19 | -1.16 | -1.39
PGM2 | -0.44 | -0.75 | -0.53 | -0.05
LINC01096 | 0.46 | 0.38 | 0.56 | 0.45
ARHGAP30 | 0.37 | 0.19 | 0.61 | 0.31
RTCA | -1.02 | -0.95 | -0.98 | -1.12
PDP2 | -0.39 | -0.18 | -0.61 | -0.38
PLAAT2 | 1.52 | 1.44 | 2.05 | 1.06
TSR3 | 0.08 | 0.28 | 0.05 | -0.08
FUNDC2 | 0.95 | 0.93 | 0.98 | –
ACE2 | 0.94 | 1.39 | 0.85 | 0.58
HEXIM2 | -0.66 | -1.11 | -0.43 | -0.42
CSNK1G1 | -0.27 | 0.08 | -0.62 | -0.26
LOC389167 (retired record) | -0.75 | -0.38 | -1.11 | -0.75
TTR | 0.62 | 0.56 | 0.78 | 0.53
INTS5 | 1.49 | 1.04 | 1.62 | 1.82
LRRTM3 | 0.63 | 0.78 | 0.64 | 0.48
CKLF | -0.26 | -0.3 | -0.14 | -0.33
GAREM2 | 0.6 | 0.33 | 0.68 | 0.79
SCG2 | 0.49 | 0.58 | 0.58 | 0.3
MRPL24 | -0.76 | -0.91 | -1.04 | -0.33
